{"source": "PubChem BioAssay AID1259414, Drosophila RNAi Screening Center, 2018", "screen": "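Fly genes that alter Wolbachia amount inside host cells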 (primary screen)", "cells": "Drosophila JW18 cells infected with Wolbachia", "reagent": "long dsRNA against Drosophila genes, 0.25 µg dsRNA per well of a 384-well plate", "duration": "5 days", "challenge": "cells persistently infected with Wolbachia before knock-down; no added drug", "read-out": "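Imaged fluorescence in situ signal for Wolbachia 23S rRNA per DAPI-counted host cell, given as a robust z-score within each plate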", "scale": "Wolbachia per cell robust z: higher = more Wolbachia per host cell than the plate typical", "active means": "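Active if absolute robust z reaches 1.5 in two or more of three replicates, leaving out multi- or no-target dsRNAs, genes unexpressed in JW18 and A1 wells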", "note": "The deposit covers about 24,000 reagents; this is an unselected part of those that have a named target and a result. Over the whole deposit, about 1,210 (5%) were called active. 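Inactive calls also include excluded dsRNAs with several or no targets, genes unexpressed in JW18, and well A1, regardless of score.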 Reagent sequences are not shown."}
{"target": "ck (GeneID 34882)", "amplicon": "DRSC03509", "Wolbachia per cell robust z, rep 1": 0.126, "Wolbachia per cell robust z, rep 2": -0.655, "Wolbachia per cell robust z, rep 3": -0.544, "Outcome": "inactive"}
{"target": "ck (GeneID 34882)", "amplicon": "DRSC40701", "Wolbachia per cell robust z, rep 1": -0.768, "Wolbachia per cell robust z, rep 2": -0.466, "Wolbachia per cell robust z, rep 3": -0.151, "Outcome": "inactive"}
{"target": "CheA84a (GeneID 3771856)", "amplicon": "DRSC37918", "Wolbachia per cell robust z, rep 1": 0.85, "Wolbachia per cell robust z, rep 2": -0.255, "Wolbachia per cell robust z, rep 3": 0.907, "Outcome": "inactive"}
{"target": "CG4853 (GeneID 36974)", "amplicon": "DRSC06898", "Wolbachia per cell robust z, rep 1": -2.37, "Wolbachia per cell robust z, rep 2": -1.89, "Wolbachia per cell robust z, rep 3": -0.0191, "Outcome": "active"}
{"target": "CG4853 (GeneID 36974)", "amplicon": "DRSC28240", "Wolbachia per cell robust z, rep 1": 1.46, "Wolbachia per cell robust z, rep 2": -0.757, "Wolbachia per cell robust z, rep 3": 0.321, "Outcome": "inactive"}
{"target": "CG34398 (GeneID 5740462)", "amplicon": "DRSC01052", "Wolbachia per cell robust z, rep 1": 0.853, "Wolbachia per cell robust z, rep 2": 0.608, "Wolbachia per cell robust z, rep 3": 1.92, "Outcome": "inactive"}
{"target": "CG34398 (GeneID 5740462)", "amplicon": "DRSC02511", "Wolbachia per cell robust z, rep 1": -0.0037, "Wolbachia per cell robust z, rep 2": 0.211, "Wolbachia per cell robust z, rep 3": -9.46, "Outcome": "inactive"}
{"target": "CG34398 (GeneID 5740462)", "amplicon": "DRSC03228", "Wolbachia per cell robust z, rep 1": 0.0806, "Wolbachia per cell robust z, rep 2": -0.267, "Wolbachia per cell robust z, rep 3": -1.9, "Outcome": "inactive"}
{"target": "CG34398 (GeneID 5740462)", "amplicon": "DRSC23293", "Wolbachia per cell robust z, rep 1": 0.0635, "Wolbachia per cell robust z, rep 2": 1.09, "Wolbachia per cell robust z, rep 3": 0.0143, "Outcome": "inactive"}
{"target": "Dd (GeneID 33107)", "amplicon": "DRSC20539", "Wolbachia per cell robust z, rep 1": -3.34, "Wolbachia per cell robust z, rep 2": -0.705, "Wolbachia per cell robust z, rep 3": -2.16, "Outcome": "active"}
{"target": "Dd (GeneID 33107)", "amplicon": "DRSC41352", "Wolbachia per cell robust z, rep 1": -0.23, "Wolbachia per cell robust z, rep 2": -1.01, "Wolbachia per cell robust z, rep 3": 0.638, "Outcome": "inactive"}
{"target": "CG42718 (GeneID 10178940)", "amplicon": "DRSC41381", "Wolbachia per cell robust z, rep 1": -1.66, "Wolbachia per cell robust z, rep 2": -0.0551, "Wolbachia per cell robust z, rep 3": -2.85, "Outcome": "inactive"}
